Consider 4 sequences from article PMC6125681, “Stability of local secondary structure determines selectivity of viral RNA chaperones”.

For at least one entry, the source does not settle the construct or the ends of the probe. For some of these results: Tags and fusion partners may be left off the protein sequences shown.

Data set [1] deals with T1, NSP2 (UniProt A2T3N6).
T1 sequence (looked up, limits assumed): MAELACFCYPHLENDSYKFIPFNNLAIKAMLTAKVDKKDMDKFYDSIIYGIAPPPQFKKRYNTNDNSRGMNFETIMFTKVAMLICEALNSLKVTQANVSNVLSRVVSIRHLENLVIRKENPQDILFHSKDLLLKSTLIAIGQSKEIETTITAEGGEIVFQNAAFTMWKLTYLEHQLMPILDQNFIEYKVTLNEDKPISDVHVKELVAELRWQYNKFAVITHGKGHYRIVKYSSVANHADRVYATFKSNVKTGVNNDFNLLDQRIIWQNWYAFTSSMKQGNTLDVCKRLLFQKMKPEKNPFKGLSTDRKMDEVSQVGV
The data set is described as follows: fluorescence anisotropy. The note with it: 50 mM NaCl, salt series; recombinant protein; label: 5' AlexaFluor488.

For data set [2], the system named is σNS. The data set is described as follows: FCCS. The note with it: multiple RNAs per hexamer; recombinant protein; label: Cy3 or Cy5 (same string printed for both).
Data set [3] concerns σNS. The data set is described as follows: SAXS. The note with it: recombinant protein.
In data set [4] the test system is σNS. The data set is described as follows: native ESI-IMS-MS, SEC, DLS, SAXS. The note with it: octamer + 2 RNA, minor hexamer + 1 RNA; recombinant protein.

Turning to “CUUUUCAAGACAUGCAACAA [unstructured 20mer]”, the equilibrium dissociation constant (Kd) in data set [1] was found to be 12 nM.
Turning to UUCCUUCUAUUUCUUCU [17mer (S11-derived)], the binding result in data set [2] is recorded as “binds”.
“CUUUUCAAGACAUGCAACAACUUUUCAAGACAUGCAACAA [40mer]”: the binding result in data set [3] is “binds”.
As to “CUUUUCAAGACAUGCAACAA [unstructured 20mer, unlabelled]”, in data set [4], the binding result is on record as “binds”.
